Data from the supplement of paper PMC3578754.
Fold change is the IC50 on the isolate divided by the IC50 on a reference virus; 1 = unchanged, higher = more resistant. Changes are given against the subtype B consensus. No active / inactive call. The values were gathered from many studies (numbered anew) with different assays, which the source does not name. Most viruses are clinical isolates; some are laboratory strains or clones with known resistance changes. Isolates with mixed residues are left out; stretches that were not sequenced show no change. Round top values that many isolates share are read here as limits; other very high values and 0.1 may be limits too.

What was measured:
Experiment in all cases: fold change of IC50 against reference virus; higher = more resistant
[1] = compound: Nc1ccn([C@H]2CC[C@@H](CO)O2)c(=O)n1 [zalcitabine]
Protocol: (§1)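 Cell-culture drug susceptibility tests of virus bearing the reverse transcriptase of each isolate, gathered from many studies.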

[2] = compound: Cc1cn([C@H]2C=C[C@@H](CO)O2)c(=O)[nH]c1=O [stavudine]
Protocol: as §1

[3] = compound: Nc1nc(NC2CC2)c2ncn([C@H]3C=C[C@@H](CO)C3)c2n1 [abacavir]
Protocol: as §1

[4] = compound: Cc1cn([C@H]2C[C@H](N=[N+]=[N-])[C@@H](CO)O2)c(=O)[nH]c1=O [zidovudine]
Protocol: as §1

[5] = compound: Cc1ccnc2c1NC(=O)c1cccnc1N2C1CC1 [nevirapine]
Protocol: as §1

[6] = compound: O=c1[nH]cnc2c1ncn2[C@H]1CC[C@@H](CO)O1 [didanosine]
Protocol: as §1

[7] = compound: Nc1nc(=O)n([C@@H]2CS[C@H](CO)O2)cc1F [emtricitabine]
Protocol: as §1

[8] = compound: CC(C)Nc1cccnc1N1CCN(C(=O)c2cc3cc(NS(C)(=O)=O)ccc3[nH]2)CC1 [delavirdine]
Protocol: as §1

[9] = compound: O=C1Nc2ccc(Cl)cc2[C@@](C#CC2CC2)(C(F)(F)F)O1 [efavirenz]
Protocol: as §1

[10] = compound: C[C@H](Cn1cnc2c(N)ncnc21)OCP(=O)(O)O [tenofovir]
Protocol: as §1

Test System | fold change of IC50 against reference virus [1] | fold change of IC50 against reference virus [2] | fold change of IC50 against reference virus [3] | fold change of IC50 against reference virus [4] | fold change of IC50 against reference virus [5] | fold change of IC50 against reference virus [6] | fold change of IC50 against reference virus [7] | fold change of IC50 against reference virus [8] | fold change of IC50 against reference virus [9] | fold change of IC50 against reference virus [10]
HIV-1 isolate 64 (reverse transcriptase changes: P4S E6D M41L R172K Y188L V189I Q197K I202V H208Y R211K T215Y V245E A272P E297A, study 15) | 1.4 | 1.4 | 1.4 | 3 | ≥ 400 | 0.9 | 1.8 | 0.3 | 11 | 0.8
HIV-1 isolate 1178 (reverse transcriptase changes: P4S M41L A62V A98G K122E D123N K166R M184V G196E I202V L210W R211K T215Y L228R D237N V245E A272P E297K, study 15) | 1.1 | 1.1 | 4.9 | 27 | 3.7 | 1.1 | ≥ 200 | 0.4 | 1.4 | 1.3
HIV-1 isolate 601 (reverse transcriptase changes: K20R V35M T39A K49R I63K A98S E138A K166R E169D K173Q V179I Y181I M184V L210W R211K T215Y A272P, study 15) | 0.9 | 0.9 | 3.9 | 0.7 | ≥ 400 | 1.4 | ≥ 200 | 20 | 0.5 | 0.4
HIV-1 isolate 585 (reverse transcriptase changes: V60I R83K K166R I178L G196E V245E A272P, study 15) | 0.9 | 0.9 | 0.9 | 0.9 | 1.8 | 0.9 | 0.8 | 2 | 1.2 | 0.9
HIV-1 isolate 787 (reverse transcriptase changes: V60I K103N K122E D123E I142V G196E A272P K281R T286A P294A E297K, study 15) | – | 1 | 0.9 | 0.9 | 25 | 0.8 | 0.8 | 37 | 12 | 0.9
HIV-1 isolate 881 (reverse transcriptase changes: V35I R83K D123E I135T D177E V245K A272P Q278Y, study 15) | – | 0.9 | 0.7 | 0.9 | 0.8 | 1.1 | 1.1 | 1.1 | 0.7 | 0.9
